Among the data in paper PMC9104152, “Phosphoproteomics Unravel HBV Triggered Rewiring of Host Phosphosignaling Events” (International Journal of Molecular Sciences, 2022) are HBV/mock values, retold here.

This data set has as its system HepG2-NTCP cells. The data set can be described thus: TMT-based phosphoproteome profiling of HBV-infected vs mock HepG2-NTCP (HBV/mock ratio). On the set-up: species or system human. Particulars: phosphosite abundance ratio of host protein, HBV-infected vs mock HepG2-NTCP, 7dpi, sheet Up-regulated.

B1: O75400 1xPhospho [S938(100)] (protein, UniProt O75400 1-957, looked up)
Pre-mRNA-processing factor 40 …: MRPGTGAERGGLMVSEMESHPPSQGPGDGERRLSGSSLCSGSWVSADGFLRRRPSMGHPGMHYAPMGMHPMGQRANMPPVPHGMMPQMMPPMGGPPMGQMPGMMSSVMPGMMMSHMSQASMQPALPPGVNSMDVAAGTASGAKSMWTEHKSPDGRTYYYNTETKQSTWEKPDDLKTPAEQLLSKCPWKEYKSDSGKPYYYNSQTKESRWAKPKELEDLEGYQNTIVAGSLITKSNLHAMIKAEESSKQEECTTTSTAPVPTTEIPTTMSTMAAAEAAAAVVAAAAAAAAAAAAANANASTSASNTVSGTVPVVPEPEVTSIVATVVDNENTVTISTEEQAQLTSTPAIQDQSVEVSSNTGEETSKQETVADFTPKKEEEESQPAKKTYTWNTKEEAKQAFKELLKEKRVPSNASWEQAMKMIINDPRYSALAKLSEKKQAFNAYKVQTEKEEKEEARSKYKEAKESFQRFLENHEKMTSTTRYKKAEQMFGEMEVWNAISERDRLEIYEDVLFFLSKKEKEQAKQLRKRNWEALKNILDNMANVTYSTTWSEAQQYLMDNPTFAEDEELQNMDKEDALICFEEHIRALEKEEEEEKQKSLLRERRRQRKNRESFQIFLDELHEHGQLHSMSSWMELYPTISSDIRFTNMLGQPGSTALDLFKFYVEDLKARYHDEKKIIKDILKDKGFVVEVNTTFEDFVAIISSTKRSTTLDAGNIKLAFNSLLEKAEAREREREKEEARKMKRKESAFKSMLKQAAPPIELDAVWEDIRERFVKEPAFEDITLESERKRIFKDFMHVLEHECQHHHSKNKKHSKKSKKHHRKRSRSRSGSDSDDDDSHSKKKRQRSESRSASEHSSSAESERSYKKSKKHKKKSKKRRHKSDSPESDAEREKDKKEKDRESEKDRTRQRSESKHKSPKKKTGKDSGNWDTSGSELSEGELEKRRRTLLEQLDDDQ
modifications: phosphorylated S938
B1: the HBV/mock stood at 1.858.

B2: O75400 1xPhospho [T373(100)] (protein, UniProt O75400 1-957, looked up)
Pre-mRNA-processing factor 40 …: MRPGTGAERGGLMVSEMESHPPSQGPGDGERRLSGSSLCSGSWVSADGFLRRRPSMGHPGMHYAPMGMHPMGQRANMPPVPHGMMPQMMPPMGGPPMGQMPGMMSSVMPGMMMSHMSQASMQPALPPGVNSMDVAAGTASGAKSMWTEHKSPDGRTYYYNTETKQSTWEKPDDLKTPAEQLLSKCPWKEYKSDSGKPYYYNSQTKESRWAKPKELEDLEGYQNTIVAGSLITKSNLHAMIKAEESSKQEECTTTSTAPVPTTEIPTTMSTMAAAEAAAAVVAAAAAAAAAAAAANANASTSASNTVSGTVPVVPEPEVTSIVATVVDNENTVTISTEEQAQLTSTPAIQDQSVEVSSNTGEETSKQETVADFTPKKEEEESQPAKKTYTWNTKEEAKQAFKELLKEKRVPSNASWEQAMKMIINDPRYSALAKLSEKKQAFNAYKVQTEKEEKEEARSKYKEAKESFQRFLENHEKMTSTTRYKKAEQMFGEMEVWNAISERDRLEIYEDVLFFLSKKEKEQAKQLRKRNWEALKNILDNMANVTYSTTWSEAQQYLMDNPTFAEDEELQNMDKEDALICFEEHIRALEKEEEEEKQKSLLRERRRQRKNRESFQIFLDELHEHGQLHSMSSWMELYPTISSDIRFTNMLGQPGSTALDLFKFYVEDLKARYHDEKKIIKDILKDKGFVVEVNTTFEDFVAIISSTKRSTTLDAGNIKLAFNSLLEKAEAREREREKEEARKMKRKESAFKSMLKQAAPPIELDAVWEDIRERFVKEPAFEDITLESERKRIFKDFMHVLEHECQHHHSKNKKHSKKSKKHHRKRSRSRSGSDSDDDDSHSKKKRQRSESRSASEHSSSAESERSYKKSKKHKKKSKKRRHKSDSPESDAEREKDKKEKDRESEKDRTRQRSESKHKSPKKKTGKDSGNWDTSGSELSEGELEKRRRTLLEQLDDDQ
modifications: phosphorylated T373
On to B2, for which the HBV/mock worked out at 1.334.

B3: O75400 2xPhospho [S938(100); T/S] (protein, UniProt O75400 1-957, looked up)
Pre-mRNA-processing factor 40 …: MRPGTGAERGGLMVSEMESHPPSQGPGDGERRLSGSSLCSGSWVSADGFLRRRPSMGHPGMHYAPMGMHPMGQRANMPPVPHGMMPQMMPPMGGPPMGQMPGMMSSVMPGMMMSHMSQASMQPALPPGVNSMDVAAGTASGAKSMWTEHKSPDGRTYYYNTETKQSTWEKPDDLKTPAEQLLSKCPWKEYKSDSGKPYYYNSQTKESRWAKPKELEDLEGYQNTIVAGSLITKSNLHAMIKAEESSKQEECTTTSTAPVPTTEIPTTMSTMAAAEAAAAVVAAAAAAAAAAAAANANASTSASNTVSGTVPVVPEPEVTSIVATVVDNENTVTISTEEQAQLTSTPAIQDQSVEVSSNTGEETSKQETVADFTPKKEEEESQPAKKTYTWNTKEEAKQAFKELLKEKRVPSNASWEQAMKMIINDPRYSALAKLSEKKQAFNAYKVQTEKEEKEEARSKYKEAKESFQRFLENHEKMTSTTRYKKAEQMFGEMEVWNAISERDRLEIYEDVLFFLSKKEKEQAKQLRKRNWEALKNILDNMANVTYSTTWSEAQQYLMDNPTFAEDEELQNMDKEDALICFEEHIRALEKEEEEEKQKSLLRERRRQRKNRESFQIFLDELHEHGQLHSMSSWMELYPTISSDIRFTNMLGQPGSTALDLFKFYVEDLKARYHDEKKIIKDILKDKGFVVEVNTTFEDFVAIISSTKRSTTLDAGNIKLAFNSLLEKAEAREREREKEEARKMKRKESAFKSMLKQAAPPIELDAVWEDIRERFVKEPAFEDITLESERKRIFKDFMHVLEHECQHHHSKNKKHSKKSKKHHRKRSRSRSGSDSDDDDSHSKKKRQRSESRSASEHSSSAESERSYKKSKKHKKKSKKRRHKSDSPESDAEREKDKKEKDRESEKDRTRQRSESKHKSPKKKTGKDSGNWDTSGSELSEGELEKRRRTLLEQLDDDQ
modifications: diphosphorylated incl. S938
With B3, the HBV/mock amounted to 1.485.

B4: O60216 1xPhospho [S545(100)] (protein, UniProt O60216 1-631, looked up)
Double-strand-break repair …: MFYAHFVLSKRGPLAKIWLAAHWDKKLTKAHVFECNLESSVESIISPKVKMALRTSGHLLLGVVRIYHRKAKYLLADCNEAFIKIKMAFRPGVVDLPEENREAAYNAITLPEEFHDFDQPLPDLDDIDVAQQFSLNQSRVEEITMREEVGNISILQENDFGDFGMDDREIMREGSAFEDDDMLVSTTTSNLLLESEQSTSNLNEKINHLEYEDQYKDDNFGEGNDGGILDDKLISNNDGGIFDDPPALSEAGVMLPEQPAHDDMDEDDNVSMGGPDSPDSVDPVEPMPTMTDQTTLVPNEEEAFALEPIDITVKETKAKRKRKLIVDSVKELDSKTIRAQLSDYSDIVTTLDLAPPTKKLMMWKETGGVEKLFSLPAQPLWNNRLLKLFTRCLTPLVPEDLRKRRKGGEADNLDEFLKEFENPEVPREDQQQQHQQRDVIDEPIIEEPSRLQESVMEASRTNIDESAMPPPPPQGVKRKAGQIDPEPVMPPQQVEQMEIPPVELPPEEPPNICQLIPELELLPEKEKEKEKEKEDDEEEEDEDASGGDQDQEERRWNKRTQQMLHGLQRALAKTGAESISLLELCRNTNRKQAAAKFYSFLVLKKQQAIELTQEEPYSDIIATPGPRFHII
modifications: phosphorylated S545
On to B4, for which the HBV/mock is on record as 1.372.

B5: Q14155 1xPhospho [S694(100)] (protein, UniProt Q14155 1-803, looked up)
Rho guanine nucleotide …: MNSAEQTVTWLITLGVLESPKKTISDPEGFLQASLKDGVVLCRLLERLLPGTIEKVYPEPRSESECLSNIREFLRGCGASLRLELLFPPSQPPQHLVTTILLSASTFDANDLYQGQNFNKVLSSLVTLNKVTADIGLGSDSVCARPSSHRIKSFDSLGSQSLHTRTSKLFQGQYRSLDMTDNSNNQLVVRAKFNFQQTNEDELSFSKGDVIHVTRVEEGGWWEGTLNGRTGWFPSNYVREVKASEKPVSPKSGTLKSPPKGFDTTAINKSYYNVVLQNILETENEYSKELQTVLSTYLRPLQTSEKLSSANISYLMGNLEEICSFQQMLVQSLEECTKLPEAQQRVGGCFLNLMPQMKTLYLTYCANHPSAVNVLTEHSEELGEFMETKGASSPGILVLTTGLSKPFMRLDKYPTLLKELERHMEDYHTDRQDIQKSMAAFKNLSAQCQEVRKRKELELQILTEAIRNWEGDDIKTLGNVTYMSQVLIQCAGSEEKNERYLLLFPNVLLMLSASPRMSGFIYQGKLPTTGMTITKLEDSENHRNAFEISGSMIERILVSCNNQQDLQEWVEHLQKQTKVTSVGNPTIKPHSVPSHTLPSHPVTPSSKHADSKPAPLTPAYHTLPHPSHHGTPHTTINWGPLEPPKTPKPWSLSCLRPAPPLRPSAALCYKEDLSKSPKTMKKLLPKRKPERKPSDEEFASRKSTAALEEDAQILKVIEAYCTSAKTRQTLNSTWQGTDLMHNHVLADDDQPSLDSLGRRSSLSRLEPSDLSEDSDYDSIWTAHSYRMGSTSRKSCCSYISHQN
modifications: phosphorylated S694
Take B5: the HBV/mock is reported as 1.757.

B6: P46060 2xPhospho [S442(100); S/T] (protein, UniProt P46060 2-587, looked up)
Ran GTPase-activating protein …: ASEDIAKLAETLAKTQVAGGQLSFKGKSLKLNTAEDAKDVIKEIEDFDSLEALRLEGNTVGVEAARVIAKALEKKSELKRCHWSDMFTGRLRTEIPPALISLGEGLITAGAQLVELDLSDNAFGPDGVQGFEALLKSSACFTLQELKLNNCGMGIGGGKILAAALTECHRKSSAQGKPLALKVFVAGRNRLENDGATALAEAFRVIGTLEEVHMPQNGINHPGITALAQAFAVNPLLRVINLNDNTFTEKGAVAMAETLKTLRQVEVINFGDCLVRSKGAVAIADAIRGGLPKLKELNLSFCEIKRDAALAVAEAMADKAELEKLDLNGNTLGEEGCEQLQEVLEGFNMAKVLASLSDDEDEEEEEEGEEEEEEAEEEEEEDEEEEEEEEEEEEEEPQQRGQGEKSATPSRKILDPNTGEPAPVLSSPPPADVSTFLAFPSPEKLLRLGPKSSVLIAQQTDTSDPEKVVSAFLKVSSVFKDEATVRMAVQDAVDALMQKAFNSSSFNSNTFLTRLLVHMGLLKSEDKVKAIANLYGPLMALNHMVQQDYFPKALAPLLLAFVTKPNSALESCSFARHSLLQTLYKV
modifications: diphosphorylated incl. S442
B6: the HBV/mock is on record as 1.521.

B7: P46060 1xPhospho [S/T] (protein, UniProt P46060 2-587, looked up)
Ran GTPase-activating protein …: ASEDIAKLAETLAKTQVAGGQLSFKGKSLKLNTAEDAKDVIKEIEDFDSLEALRLEGNTVGVEAARVIAKALEKKSELKRCHWSDMFTGRLRTEIPPALISLGEGLITAGAQLVELDLSDNAFGPDGVQGFEALLKSSACFTLQELKLNNCGMGIGGGKILAAALTECHRKSSAQGKPLALKVFVAGRNRLENDGATALAEAFRVIGTLEEVHMPQNGINHPGITALAQAFAVNPLLRVINLNDNTFTEKGAVAMAETLKTLRQVEVINFGDCLVRSKGAVAIADAIRGGLPKLKELNLSFCEIKRDAALAVAEAMADKAELEKLDLNGNTLGEEGCEQLQEVLEGFNMAKVLASLSDDEDEEEEEEGEEEEEEAEEEEEEDEEEEEEEEEEEEEEPQQRGQGEKSATPSRKILDPNTGEPAPVLSSPPPADVSTFLAFPSPEKLLRLGPKSSVLIAQQTDTSDPEKVVSAFLKVSSVFKDEATVRMAVQDAVDALMQKAFNSSSFNSNTFLTRLLVHMGLLKSEDKVKAIANLYGPLMALNHMVQQDYFPKALAPLLLAFVTKPNSALESCSFARHSLLQTLYKV
modifications: phosphorylated
Consider B7, for which the HBV/mock was found to be 1.366.
